Source: paper PMC7673538 (PLoS Biology, 2020)

Sequences of proteins named here, by UniProt entry; tags and fusion partners are left off. Residues count along the entry.
UniProt P03313, 1216-1429: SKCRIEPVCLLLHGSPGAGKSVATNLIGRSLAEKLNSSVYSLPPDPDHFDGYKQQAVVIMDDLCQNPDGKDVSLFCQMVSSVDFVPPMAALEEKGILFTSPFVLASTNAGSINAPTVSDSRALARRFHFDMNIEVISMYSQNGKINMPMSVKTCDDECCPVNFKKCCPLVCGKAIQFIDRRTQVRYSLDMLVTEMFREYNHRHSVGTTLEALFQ

Target: CV-B3 2C protein (Coxsackievirus B3, UniProt P03313)
Type: binding

Substance: BF738735
- delta TM, Average: 0.4933
